Consider twelve compounds from US20260382604A1, “Inhibitors of Type 1 Methionyl-tRNA Synthetase and Methods of Using Them” (published 2026).

Where “and” joins values, the source holds several entries; their conditions need not be identical. Identical values can stand only once.

Experiment [1] concerns T. cruzi. Kind of experiment: In vivo acute T. cruzi infection model. The settings on record: for Log decrease from vehicle: PO, dose 50, 2 times/day, 5 days of treatment. As to the method:
In vivo acute T crud infection model. Swiss Webster mice were infected with 2×10^4 Trypanosoma cruzi trypomastigotes expressing a red-shifted luciferase gene IP on day zero (M. D. Lewis et al. J Biomol Screen 2015; 20(1):36-43). Mice were dosed orally with the test compounds, vehicle, or the control drug (benznidazole) for 5 days (days 7-11 post-infection). The parasites were imaged and quantified using an IVIS imaging system at multiple time points. The substrate D-luciferin potassium salt was injected SC at 150 mg/kg into mice, followed by imaging 10-15 minutes post injection. Images were taken for each set of mice both dorsally and ventrally. Auto-exposure settings are used with a maximum exposure time set to 5 minutes. The signal from these images is combined and standardized by converting the readouts to radiance (photons/sec/cm^2/sr). The decrease in luminescence compared to vehicle control was quantified on day 13 post-infection.

The test system of experiment [2] is T. cruzi. Kind of experiment: T. cruzi growth inhibition assay. The conditions noted are these: read-out: In Vitro EC50; anti-T. cruzi activity in vitro (Table 3). As to the method:
Trypanosoma crud growth inhibition assay: The Tulahuen strain of T. cruzi that expresses the Escherichia coli 3-galactosidase gene was utilized (PMID: 8913471). Mammalian stages of parasites were grown at 37 °C on monolayers of murine 3T3 fibroblasts in RPMI 1640 (Biowhittaker Inc., Walkersville, Md.) with 10% fetal bovine serum, penicillin, streptomycin, and glutamine. Growth inhibition assays were performed in 96-well tissue culture plates (Costar, Cambridge, Mass.). First, 3T3 fibroblasts were inoculated at 103/well using RPMI 1640 without phenol red (Biowhittaker Inc.) plus 10% fetal bovine serum and glutamine. The next day, the plates were infected with T. cruzi trypomastigotes at 104/well. After 4 h, drugs were added in serial dilutions to give a final volume of 200 μl/well. The plates were incubated at 37 °C in 5% CO2 atmosphere for 6 days. At this time. CPRG (100 μM final) and Nonidet P-40 (0.1% final) (Sigma Chemical Co., St. Louis, Mo.) were added and the plates were incubated at 37 °C for approximately 4 h. Wells with 0-galactosidase activity turned the media from yellow to red, and this was quantified on an enzyme-linked immunosorbent assay reader at A570.

Experiment [3] deals with S. aureus (MRSA strain AH4827). Put plainly: Murine thigh infection model (neutropenic, luminescent MRSA). The source says: Murine thigh infection model. Animal studies are approved by the Institutional Animal Care and Use Committee at the University of Washington, Seattle. Female specific pathogen free CD1 mice are obtained from Charles River (Wilmington. MA) weighing 23-27 grams and allowed at least 3 days to acclimate prior to study. Mice had access to food and water ad libitum. Neutropenia is induced by administering cyclophosphamide monohydrate (Sigma Aldrich C7397; St. Louis, MO) via IP injection 4 days (at 150 mg/kg) and 1 day (at 100 mg/kg) prior to infection. Neutropenic status is confirmed by neutrophil count <100 cells/mm^3.
Overnight culture of luminescent MRSA (strain AH4827 is diluted 1:100 in MHB and incubated until reaching mid-log phase (OD600<0.750). The inoculum is prepared by pelleting log-phase culture and re-suspending in sterile dPBS. The culture is adjusted to OD600 of 0.200 and diluted 1:100 in sterile dPBS correlating to an inoculum of ~2*10^5 CFU/100 μL. The mice are infected by an intramuscular injection of 100 μL in the right posterior thigh while under isoflurane gas anesthesia. At 1 h post infection, one control group is sacrificed for determination of initial inoculum (status level of infection) after all mice are imaged by IVIS to confirm infection. Mice are dosed at 2 and 14 h post-infection or 2, 10, and 18 h post-infection with test compounds (below); they received a SC dose of 5 mg/kg ketoprofen at 2 h post-infection for pain management. Mice are imaged by IVIS at 24 h post-infection then sacrificed; the thigh muscle is sterilely removed, weighed, homogenized in 5 mLs dPBS, serially diluted, plated on tryptic soy agar in duplicate, and incubated overnight at 37 °C. Colonies are counted to quantify the bacterial load in CFUs per gram of thigh tissue.
Linezolid as positive control is administered 50 mg/kg PO according to dosing regimen used for experimental compounds.
Test compounds and linezolid control are administered PO (orally) or SC (by subcutaneous injection) in 200 μL of vehicle containing 7% Tween80, 5% DMSO, 3% EtOH in saline.

The subject of experiment [4] is S. pyogenes. Put plainly: Serum shift MIC, S. pyogenes. The settings on record: serum shift procedure, with serum (50% human serum). The source says:
(§1) Media and culture conditions. Mueller Hinton broth (MHB), cation adjusted Mueller Hinton broth (CA-MHB), Todd Hewitt Broth (THB) and Brain Heart Infusion broth (BHI) were purchased from Becton Dickinson (Franklin Lakes, NJ). Tryptic soy agar (TSA) plates and TSA with 5% sheep blood plates were purchased from Remel (San Diego, CA). MHB was used to assay all Staphylococcus aureus strains. CA-MHB was used for Staphylococcus epidermidis, Enterococcus faecalis, Enterococcus faecium, Escherichia coil, and Pseudomonas aeruginosa. THB broth supplemented with 1% yeast extract was used for Streptococcus pneumoniae and Streptococcus pyogenes. Staphylococcus. Enterococcus, Escherichia, and Pseudomonas strains were cultured at 37 °C with ambient air. Streptococcus strains were cultured in 37 °C with 5% CO2. Separate conditions for radiolabeled precursor uptake assays are described below.
(§2) Susceptibility testing: Minimum inhibitory concentration (MIC) determinations are performed in triplicate in 96-well round bottom microtiter plates (Corning, Corning NY) as described by the Clinical and Laboratory Standards Institute (CLSI). Serial two-fold dilutions of compounds are added to plates in 50 μL volumes. An additional 50 μL of media containing bacterial cells (1×10^6 CFUs/mL) is then added to each well. Maximum DMSO concentrations are 0.5%. Plates are incubated at 37 °C for at least 18 h before reading the susceptibility result by optical absorbance (OD600) using a BioTek ELx800. The lowest concentration causing ≥90% growth inhibition compared to the untreated control is recorded as the MIC (and also corresponded to the visual MIC). MICs are measured at least twice and the higher value (if different) is recorded herein.
(§3) Serum shift assays: To assess the role of protein binding on compound susceptibility, MIC determinations are performed in triplicate in the presence and absence of 50% human serum. Serial threefold dilutions of 2× compound are generated in MHB or THY (depending on organism) and aliquoted onto 96 well plates with a DMSO limit of 0.5%. Bacteria are adjusted to 1*10^8 CFUs/mL in media, then further diluted 1:100 in media and 100% heat deactivated filter sterilized pooled human serum. Fifty microliters are added to each well of the corresponding plates, and the plates are incubated at 37 °C for ~20 h. The lowest concentration causing ≥90% growth inhibition is recorded as the MIC.

Experiment [5] relates to S. aureus. Put plainly: Serum shift MIC, S. aureus. The conditions noted are these: serum shift procedure, with serum (50% human serum).
Excerpt: as §1, §2, §3

A further experiment deals with T. brucei. Kind of experiment: Trypanosoma brucei growth inhibition assay. The conditions noted are these: read-out: T. brucei EC50; in vitro growth inhibition. Here is the method: Trypanosoma brucei growth inhibition assay: Compounds are tested for anti-trypanosomal activity against Trypanosoma brucei cells (BSF 427 parasites) in HMI-9 media containing 10% heat inactivated FBS 100 U mL^−1 penicillin/100 μg mL^−1 streptomycin at 37 °C with 5% CO2. Test compounds are assayed in a 96-well format in triplicate with serial 3-fold dilutions of compound or a pentamidine control against an initial inoculum of 10 000 cells/well and quantified at 48 hours with Alamar Blue (Invitrogen, Waltham, MA).

Experiment [6] concerns S. pyogenes. Kind of experiment: Susceptibility testing (MIC), S. pyogenes. The conditions noted are these: ATCC19615.
Excerpt: as §1, §2

For another experiment, the system named is MRSA. Kind of experiment: Susceptibility testing (MIC), MRSA.
Excerpt: as §1, §2

Experiment [7] concerns S. aureus. Put plainly: Susceptibility testing (MIC), S. aureus. The settings on record: ATCC29213.
Excerpt: as §1, §2

One may read the EC50 as the concentration giving half of the maximal effect. Take `COc1cc(Cl)c(-c2cccc3nc(Cc4nc5nc(Cl)ccc5[nH]4)cn23)cc1OC`: the “Log decrease from vehicle” value came to 1.32 with T. cruzi [1]; 1 in experiment [3] (PO, dose 75, 2 times/day); 0.5 in experiment [3] (SC, dose 25, 3 times/day). The EC50 with T. cruzi [2] is 11 nM. In addition, the “S. pyogenes MIC w serum” value in the experiment with S. pyogenes [4] came to 8 µg/mL. Also, the “S. aureus MIC w Serum” value in the experiment with S. aureus [5] worked out at 1 µg/mL.

`COc1cc(Cl)c(-c2cncc3nc(Cc4nc5nc(Cl)ccc5[nH]4)cn23)cc1OC`: in the experiment with T. cruzi [1], the “Log decrease from vehicle” value stood at 1.21. The EC50 in the experiment on T. cruzi [2] came out at 7.5 nM. In the experiment with S. pyogenes [4], the “S. pyogenes MIC w serum” value turned out to be 9.9 µg/mL. Also, the “S. aureus MIC w Serum” value in the experiment with S. aureus [5] was found to be 1.2 µg/mL.

Turning to `COc1ccc(-c2ccc(OC)c3c2CN(Cc2nc4nc(Cl)ccc4[nH]2)C3=O)c(Cl)c1`, in the experiment on T. cruzi [1], the “Log decrease from vehicle” value turned out to be 0.46. The EC50 in the experiment on T. cruzi [2] turned out to be 5 nM.

On to `COc1cc(Cl)c(-c2cnc(N3CC(C)NC(C)C3)c3nn(Cc4nc5ccc(Cl)nc5[nH]4)cc23)cc1OC` (centres unmarked), for which the EC50 with T. brucei was determined as 0.91 nM. The “S. pyogenes (ATCC19615) MIC” value in the experiment on S. pyogenes [6] is 0.119 µg/mL. The “MRSA (ATCC33591) MIC” value with MRSA turned out to be 0.679 µg/mL. In addition, the “Log decrease from vehicle” value in [3] (route not given, dose 50, 3 times/day) is given as 1.1. Also, in the experiment with S. aureus [7], the “S. aureus (ATCC29213) MIC” value is 0.446 µg/mL. In addition, the “S. pyogenes MIC w serum” value in the experiment on S. pyogenes [4] came out at 2 µg/mL. Also, in the experiment with S. aureus [5], the “S. aureus MIC w Serum” value is 1 µg/mL.

Consider `COc1cc(Cl)c(-c2nccc3nc(Cc4nc5nc(Cl)ccc5[nH]4)cn23)cc1OC`, for which the “Log decrease from vehicle” value in [3] (PO, dose 50, 3 times/day) is 1.1. Further, the “S. pyogenes MIC w serum” value in the experiment with S. pyogenes [4] was 16 µg/mL. For the same compound, the “S. aureus MIC w Serum” value in the experiment with S. aureus [5] turned out to be 1.5 µg/mL.

Take `COc1ccc(-c2ccc(NC(C)=O)c3c2CN(Cc2nc4nc(Cl)ccc4[nH]2)C3=O)c(Cl)c1`: the “Log decrease from vehicle” value with T. cruzi [1] is reported as 0.37. Also, the EC50 in the experiment on T. cruzi [2] is 8 nM.

Consider `COc1cc(Cl)c(-c2cnc(N3C4CCC3COC4)c3nn(Cc4nc5ccc(Cl)nc5[nH]4)cc23)cc1OC`, for which the EC50 in the experiment on T. brucei is < 0.91 nM. Besides, the “S. pyogenes (ATCC19615) MIC” value with S. pyogenes [6] is 0.272 µg/mL. The “MRSA (ATCC33591) MIC” value in the experiment on MRSA worked out at 0.212 µg/mL. In addition, the “Log decrease from vehicle” value in [3] (PO, dose 50, 3 times/day) amounted to 0.5. Further, the “S. aureus (ATCC29213) MIC” value in the experiment with S. aureus [7] was 0.221 µg/mL. The “S. pyogenes MIC w serum” value with S. pyogenes [4] was 16 µg/mL. The “S. aureus MIC w Serum” value in the experiment on S. aureus [5] is 4 µg/mL.

For `COc1cc(Cl)c(-c2c(F)nc(-c3cnn(C)c3)c3nc(Cc4nc5nc(Cl)ccc5[nH]4)cn23)cc1OC`, the “Log decrease from vehicle” value in the experiment with T. cruzi [1] amounted to 3.01. In the experiment with T. cruzi [1] (compared to non-fluorinated analogs such as 2503 and 2602), the “in vivo efficacy (in words)” value is reported as “useful in vivo efficacy”. Also, the EC50 in the experiment with T. cruzi [2] was 6.1 nM.

For `COc1cc(Cl)c(-c2cnc(N3CCNC(=O)C3)c3nc(Cc4nc5ccc(Cl)nc5[nH]4)cn23)cc1OC`, in [3] (SC, dose 50, 3 times/day), the “Log decrease from vehicle” value is 0.4. Moreover, the “S. pyogenes MIC w serum” value with S. pyogenes [4] was 1 µg/mL. In addition, the “S. aureus MIC w Serum” value in the experiment on S. aureus [5] is 1 µg/mL.

For `COc1cc(Cl)c(-c2cnc(-c3cnn(C)c3)c3nc(Cc4nc5nc(Cl)ccc5[nH]4)cn23)cc1OC`, the “Log decrease from vehicle” value in the experiment with T. cruzi [1] is given as 2.48. The EC50 in the experiment on T. cruzi [2] was determined as 3.5 nM.

With `COc1cc(Cl)c(-c2cccc3nc(Cc4nc5nc(F)ccc5[nH]4)cn23)cc1OC`, the “Log decrease from vehicle” value in experiment [3] (PO, dose 75, 2 times/day) was 1. Moreover, the “S. pyogenes MIC w serum” value in the experiment on S. pyogenes [4] was 16 µg/mL. Besides, the “S. aureus MIC w Serum” value with S. aureus [5] is 1 µg/mL.

Consider `COc1cc(Cl)c(-c2cnc(N3CCNC(=O)C3)c3nn(Cc4nc5nc(Cl)ccc5[nH]4)cc23)cc1OC`, for which, in the experiment with MRSA, the “MRSA (ATCC33591) MIC” value was 0.0414 µg/mL and 0.0608 µg/mL. For the same compound, the “Log decrease from vehicle” value in experiment [3] (SC, dose 25, 3 times/day) was 0.3. For the same compound, in the experiment on S. aureus [7], the “S. aureus (ATCC29213) MIC” value came out at 0.224 µg/mL. The “S. pyogenes MIC w serum” value in the experiment on S. pyogenes [4] amounted to 4 µg/mL. Also, in the experiment with S. aureus [5], the “S. aureus MIC w Serum” value is 3 µg/mL.
